Source: PubChem BioAssay AID1259414 (Drosophila RNAi Screening Center, 2018)
The screen tested about 24,000 reagents; below is a random part of those with a known target gene and a result. In the full data, about 1,210 (5%) got an active call. 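Inactive calls also include excluded dsRNAs with several or no targets, genes unexpressed in JW18, and well A1, regardless of score.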 The numbers tell different reagents against one gene apart. Names joined by + are all predicted targets of the reagent.

Assay: 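Genome-wide screen for host control of endosymbiont load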 (primary screen)
Cells: Drosophila JW18 cells infected with Wolbachia
Knock-down reagent: long dsRNA against Drosophila genes, 0.25 µg dsRNA per well of a 384-well plate
Duration: 5 days
Conditions: cells persistently infected with Wolbachia before knock-down; no added drug
Read-out: 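Automated imaging of bacterial rRNA staining divided by host cell count, reported as plate-normalised robust z-score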
Scale: Wolbachia per cell robust z: higher = more Wolbachia per host cell than the plate typical
Hit rule: 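Hit when robust z is 1.5 or more, or -1.5 or less, in at least two of three replicates; excludes dsRNAs with several or no targets, genes not expressed in JW18 and well A1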

target gene	reagent no.	Wolbachia per cell robust z, rep 1	Wolbachia per cell robust z, rep 2	Wolbachia per cell robust z, rep 3	outcome
Fam92	1	-0.681	-0.618	-0.748	inactive
Fam92	2	-0.763	0.601	0.507	inactive
CG33140	1	-6.43	-0.265	0.772	inactive
CG33140	2	0.413	0.844	0.995	inactive
TwdlT	1	-0.352	1.11	-0.00592	inactive
ste24b	1	-0.174	-4.97	-3.02	inactive
ste24b	2	1.49	2.66	1.53	inactive
Tm2	1	-0.822	0.835	1.15	inactive
Tm2	2	-1.21	-0.637	-1.94	inactive
CG18622	1	-1.69	-0.00507	-1.84	inactive
RhoGAP54D	1	0.882	1.52	0.092	inactive
RhoGAP54D	2	0.276	0.0974	0.186	inactive
SkpD	1	0.217	0.596	0.925	inactive
EMC6	1	0.515	0.539	0.205	inactive
CG2930	1	0.0827	-6.53	-0.338	inactive
CG2930	2	0.737	-0.296	1.27	inactive
Marcal1	1	-0.369	-1.04	0.613	inactive
CG10051	1	0.583	0.417	0.572	inactive

Continued, starting with the last 3 of the part before.
target gene	reagent no.	Wolbachia per cell robust z, rep 1	Wolbachia per cell robust z, rep 2	Wolbachia per cell robust z, rep 3	outcome
CG2930	2	0.737	-0.296	1.27	inactive
Marcal1	1	-0.369	-1.04	0.613	inactive
CG10051	1	0.583	0.417	0.572	inactive
trem	1	0.0417	0.536	0.0761	inactive
CG31191	1	-0.34	0.543	-0.492	inactive
bug	1	1.41	1.06	0.622	inactive
CG8003	1	-0.267	-0.143	0.836	inactive
CG32795	1	-2.76	-0.0673	-2.86	active
CG32795	2	0.383	0.221	0.46	inactive
CG44249 + Snp	1	0.934	0.498	-1.19	inactive
CG34202	1	-0.396	0.481	-0.115	inactive
sgll	1	0.0556	-0.986	0.496	inactive
AspRS	1	1.59	-0.765	-0.93	inactive
